The list shows a part of the results, in another mix than the full data. Activity calls are given as the source filed them. The call rests on the fitted dose curve; in most records, active means well fitted inhibition curve with a large enough effect; inconclusive means small, poorly fitted or top-dose-only effect; inactive means flat fitted curve, though single readings scatter.

These results are taken from PubChem BioAssay AID624173 (National Center for Advancing Translational Sciences (NCATS), 2012).
On the % scale 0 is the no-effect control and ±100 the full control effect.

The target of the experiment is pyruvate kinase (Trypanosoma brucei) (UniProt Q57TT1). Description: qHTS of Trypanosoma Brucei Inhibitors. Further: nearly all actives have a fitted effect of over 50% in size. Particulars: TbPYK enzyme, Kinase-Glo Plus ATP luminescence, 45 min; at 76.8 µM (top of the series). For orientation: In qHTS, concentration-response curves come from the screen itself.
Consider `CC(C)(C)OC(=O)N1CCC(N(C(=O)c2ccccc2)c2ccc(Cl)cc2)CC1`, for which the activity, negative = inhibition is inactive: 0.474%.

Consider `O=C(NCC1(N2CCOCC2)CCCCC1)c1ccc([N+](=O)[O-])cc1`, for which the activity, negative = inhibition was inactive: -0.085%.

With `O=C(NCC1(N2CCOCC2)CCCCC1)c1ccccc1[N+](=O)[O-]`, the activity, negative = inhibition was inactive: -9.35%.

As to `N#Cc1ccc(C(=O)NCC2(N3CCCCC3)CCCCC2)cc1`, the activity, negative = inhibition is inactive: 2.38%.

As to `CCOC(=O)C(CC)C1=NC(C)(C)Cc2ccccc21.O=[N+]([O-])c1cc([N+](=O)[O-])c(O)c([N+](=O)[O-])c1` (centres undefined), the activity, negative = inhibition was inactive: -2.5%.

Consider `O=C(NCC1(N2CCOCC2)CCCCC1)c1ccccc1`, for which the activity, negative = inhibition is inactive: 1.26%.

Take `Cc1cc(N(CCCl)CCCl)ccc1C=O`: the activity, negative = inhibition was inactive: -8.42%.

On to `CCCN1CCC(Nc2cc(OC)cc(OC)c2)CC1`, for which the activity, negative = inhibition is inactive: -2.59%.

As to `O=c1[nH]c2ccccc2n1C1CCN(C(c2ccccc2)c2nnnn2C2CCCC2)CC1` (centres undefined), the activity, negative = inhibition is inactive: 1.4%.

With `c1ccc(CN2CCC(Nc3ccccc3)CC2)cc1`, the activity, negative = inhibition was inactive: 1.43%.

As to `CN(C)C1(CNC(=O)c2cccc(C#N)c2)CCCCC1`, the activity, negative = inhibition is inactive: 8.44%.

Consider `CC(C)(C)n1nnnc1C(c1cccc2ccccc12)N1CCC(n2c(=O)[nH]c3ccccc32)CC1` (centres undefined), for which the activity, negative = inhibition was inactive: 2.89%.

Consider `O=C(NCC1(N2CCOCC2)CCCCC1)c1cc(Br)ccc1Cl`, for which the activity, negative = inhibition was inactive: -5.05%.

For the compound `COc1cc(C(=O)NCC2(N3CCOCC3)CCCCC2)cc(OC)c1C`, the activity, negative = inhibition is inactive: 1.27%.

Take `CCCCn1nnnc1C(c1ccccc1)N1CCC(n2c(=O)[nH]c3ccccc32)CC1` (centres undefined): the activity, negative = inhibition is inactive: 1.66%.

In the case of `O=c1[nH]c2ccccc2n1C1CCN(C(c2ccnc3ccccc23)c2nnnn2C2CCCC2)CC1` (centres undefined), the activity, negative = inhibition was inactive: 1.12%.

Take `COc1ccc(C(=O)NCC2(N3CCOCC3)CCCCC2)cc1OC`: the activity, negative = inhibition is inactive: 2.8%.

With `O=c1[nH]c2ccccc2n1C1CCN(C(c2cccs2)c2nnnn2C2CCCCC2)CC1` (centres undefined), the activity, negative = inhibition was inactive: 4.96%.

In the case of `N/C(=N\O)c1c(N)no[n+]1[O-]`, the activity, negative = inhibition is inactive: -4.32%.

Turning to `CCOC(=O)N1CCC(Nc2ccc(C)cc2)CC1`, the activity, negative = inhibition is inactive: -10.2%.

Regarding `COc1cccc(C(c2nnnn2C(C)(C)C)N2CCC(n3c(=O)[nH]c4ccccc43)CC2)c1OC` (centres undefined), the activity, negative = inhibition is inactive: -6.96%.

For `CCCCn1nnnc1C(c1cccc(OC)c1OC)N1CCC(n2c(=O)[nH]c3ccccc32)CC1` (centres undefined), the activity, negative = inhibition is inactive: 4.51%.

Consider `O=c1[nH]c2ccccc2n1C1CCN(C(c2cccs2)c2nnnn2C2CCCC2)CC1` (centres undefined), for which the activity, negative = inhibition was inactive: -0.249%.

Take `O=C(O)c1cccc(Nc2c([N+](=O)[O-])cc([N+](=O)[O-])cc2[N+](=O)[O-])c1`: the activity, negative = inhibition was inactive: -0.0618%.

Take `CCc1cc(C(=O)NCC2(N3CCCCC3)CCCCC2)sc1C`: the activity, negative = inhibition is inactive: -5.74%.

As to `O=C(OC1CN2CCC1CC2)C1c2ccccc2C=Cc2ccccc21` (centres undefined), the activity, negative = inhibition was inactive: -1.08%.

For the compound `CN1CCC(Nc2ccc(F)c(Cl)c2)CC1`, the activity, negative = inhibition was inactive: -9%.

Turning to `CCOc1ncccc1C(=O)NCC1(N2CCOCC2)CCCCC1`, the activity, negative = inhibition was inactive: 6.47%.

Regarding `O=c1[nH]c2ccccc2n1C1CCN(C(c2cc3ccccc3o2)c2nnnn2C2CCCC2)CC1` (centres undefined), the activity, negative = inhibition was inactive: -1.03%.

As for `CCCOc1ccc(C(=O)NCC2(N(C)C)CCCCC2)cc1`, the activity, negative = inhibition is inactive: 0.339%.

For `NN(c1ccccc1)C1CCN(CCc2ccccc2)CC1`, the activity, negative = inhibition is inactive: -12.5%.

As to `O=C(O)C1(Nc2ccccc2)CCN(Cc2ccccc2)CC1`, the activity, negative = inhibition is inactive: 0%.

As to `CC(C)(C)OC(=O)N1CCC(Nc2ccccc2)CC1`, the activity, negative = inhibition was inactive: 5.01%.

With `CCC(CO)(C(=O)OC1CN2CCC1CC2)c1ccccc1` (centres undefined), the activity, negative = inhibition was inactive: -0.142%.

As to `COc1cccc(C(=O)N(c2cc(C)cc(C)c2)C2CCN(C(=O)OC(C)(C)C)CC2)c1`, the activity, negative = inhibition is inactive: -9.15%.

Turning to `COc1cc(OC)cc(C(=O)NCC2(N3CCOCC3)CCCCC2)c1`, the activity, negative = inhibition is inactive: -0.389%.

In the case of `COc1cccc(C(c2nnnn2C2CCCC2)N2CCC(n3c(=O)[nH]c4ccccc43)CC2)c1OC` (centres undefined), the activity, negative = inhibition is inactive: 3.69%.

In the case of `COc1cc(C(=O)NCC2(N3CCOCC3)CCCCC2)cc(OC)c1OC`, the activity, negative = inhibition is inactive: -3.46%.

On to `CN1CCC(Nc2ccc(Cl)cc2)CC1`, for which the activity, negative = inhibition is inactive: 0.392%.

`COc1cc(OC)cc(C(=O)NCC2(N3CCCCC3)CCCCC2)c1`: the activity, negative = inhibition is inactive: 2.78%.

As to `O=c1[nH]c2ccccc2n1C1CCN(C(c2ccnc3ccccc23)c2nnnn2C2CCCCC2)CC1` (centres undefined), the activity, negative = inhibition is inactive: -1.58%.

Turning to `CCC(c1nnnn1C1CCCCC1)N1CCC(n2c(=O)[nH]c3ccccc32)CC1` (centres undefined), the activity, negative = inhibition is inactive: -6.53%.

As for `CN(C)C1(CNC(=O)c2ccc(C(C)(C)C)cc2)CCCCC1`, the activity, negative = inhibition was inactive: 2.75%.

Turning to `COc1cccc(C(c2nnnn2C2CCCCC2)N2CCC(n3c(=O)[nH]c4ccccc43)CC2)c1OC` (centres undefined), the activity, negative = inhibition is inactive: -4.91%.

For the compound `CC(=O)N(c1ccccc1)C1CCNCC1`, the activity, negative = inhibition was inactive: -7.12%.

For the compound `Cc1ccc(NC2(C#N)CCN(Cc3ccccc3)CC2)cc1`, the activity, negative = inhibition is inactive: -4.39%.

For `Fc1ccccc1NC1CCN(Cc2ccccc2)CC1`, the activity, negative = inhibition was inactive: 14.3%.

Take `Cc1ccc(Nc2c([N+](=O)[O-])cc([N+](=O)[O-])cc2[N+](=O)[O-])cc1`: the activity, negative = inhibition was inactive: 1.95%.

As for `Cc1ccc(C(=O)NCC2(N3CCCCC3)CCCCC2)o1`, the activity, negative = inhibition was inactive: -0.777%.

As to `CCN1CCC(Nc2cccc(F)c2)CC1`, the activity, negative = inhibition was inactive: 24.9%.

For the compound `COc1ccc(C(c2nnnn2C2CCCCC2)N2CCC(n3c(=O)[nH]c4ccccc43)CC2)cc1` (centres undefined), the activity, negative = inhibition was inactive: 2.51%.

As to `CC(C)(C)n1nnnc1C(c1ccnc2ccccc12)N1CCC(n2c(=O)[nH]c3ccccc32)CC1` (centres undefined), the activity, negative = inhibition is inactive: 5.32%.

On to `Cc1ccccc1NC1(C#N)CCN(Cc2ccccc2)CC1`, for which the activity, negative = inhibition is inactive: -5.43%.

In the case of `CN(C)c1ccc(C(=O)NCC2(N3CCCCC3)CCCCC2)cc1`, the activity, negative = inhibition was inactive: 1.11%.

Regarding `Cn1c(=O)[nH]cc(N(CCCl)CCCl)c1=O`, the activity, negative = inhibition was inactive: -5.55%.

Take `O=C(NCC1(N2CCCCC2)CCCCC1)c1ccco1`: the activity, negative = inhibition was inactive: -2.77%.

As to `CC(C)(C)c1ccc(C(=O)NCC2(N3CCOCC3)CCCCC2)cc1`, the activity, negative = inhibition was inactive: -0.445%.

For the compound `Cc1ccccc1C(=O)NCC1(N(C)C)CCCCC1`, the activity, negative = inhibition is inactive: -3.66%.

Regarding `CCOc1ccc(C)cc1CN(CCCl)CCCl`, the activity, negative = inhibition is inactive: -2.13%.
